{
  "source": "paper PMC9274624",
  "about": "(2022)",
  "target": "SARS-CoV-2 prototype RBD (residues 319-541) (SARS-CoV-2, UniProt P0DTC2 319-541)",
  "experiment": "SPR",
  "data": [
    {"binder": "palm-civet ACE2 peptidase domain (residues 19-615) (domain or fragment) STTEELAKTFLETFNYEAQELSYQSSVASWNYNTNITDENAKNMNEAGAKWSAYYEEQSKLAQTYPLAEIQDAKIKRQLQALQQSGSSVLSADKSQRLNTILNAMSTIYSTGKACNPNNPQECLLLEPGLDNIMENSKDYNERLWAWEGWRAEVGKQLRPLYEEYVALKNEMARANNYEDYGDYWRGDYEEEWTGGYNYSRNQLIQDVEDTFEQIKPLYQHLHAYVRAKLMDTYPSRISRTGCLPAHLLGDMWGRFWTNLYPLTVPFGQKPNIDVTDAMVNQNWDARRIFKEAEKFFVSVGLPNMTQGFWENSMLTEPGDGRKVVCHPTAWDLGKGDFRIKMCTKVTMDDFLTAHHEMGHIQYDMAYAAQPFLLRNGANEGFHEAVGEIMSLSAATPNHLKTIGLLSPAFSEDNETEINFLLKQALTIVGTLPFTYMLEKWRWMVFKGAIPKEQWMQKWWEMKRNIVGVVEPVPHDETYCDPASLFHVANDYSFIRYYTRTIYQFQFQEALCQIAKHEGPLHKCDISNSTEAGKKLLEMLSLGRSEPWTLALERVVGAKNMNVTPLLNYFEPLFTWLKEQNRNSFVGWDTDWRPYSD", "values": [
      {"measurement": "Kd", "result": 38, "unit": "µM"}
    ]}
  ]
}
